Some entries of the source have several records that differ or are many. This is not the full list of results. The source may hold further records. Values that stand side by side differ, and nothing given here explains why; dose, time, organism, isomer or construct need not be as stated for each record.
Experiment: Amplex Red redox-cycling counter screen (H2O2 generation with DTT)
Conditions: 1 mM DTT; compared with redox-cycling reference DA-3003-1

In the case of `CC1(C)C(=O)N=C2C1=C(O)C(=O)c1ccccc12` [BVT-948], the “Amplex Red Assay % Activity (redox cycling)” value is reported as “redox reactive compounds and >100%”.

Reference: article PMC8062000, “High-throughput screening of the ReFRAME, Pandemic Box, and COVID Box drug repurposing libraries against SARS-CoV-2 nsp15 endoribonuclease to identify small-molecule inhibitors of viral activity” (PLoS ONE, 2021)
